The text below walks through data of PubChem BioAssay AID1626 (SRMLSC, 2009).

The term inhibition denotes the drop in the measured response relative to a control, in per cent.

The structures appear in SMILES notation. The list shows a part of the results. The source made the active and inactive calls. No stated cut-off is given here; in the data, inconclusive means inhibition above about 80% without an active follow-up result; inactive means below that; test concentration not stated here.

A short description of this test: M. tuberculosis H37Rv growth inhibitors, H37Rv strain (AID 1626).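 Further: bacteria incubated seven days before Alamar blue readout; 0% = bacteria only wells and 100% = bacteria with antibiotic wells.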 Conditions: active compounds read high, concentration not given here.
For `c1ccc(CN2CCC(Nc3ccccc3)CC2)cc1`, the inhibition is inactive: -8.35%. `N#Cc1ccc(C(=O)NCC2(N3CCCCC3)CCCCC2)cc1`: the inhibition was inactive: -1.94%.

For `O=C(OC1CN2CCC1CC2)C1c2ccccc2C=Cc2ccccc21` (centres undefined), the inhibition is inactive: -3.16%. The same measure for `COc1ccc(C(=O)NCC2(N3CCOCC3)CCCCC2)cc1OC`: inactive: -7.32%; for `CCCOc1ccc(C)cc1CN(CCCl)CCCl`: inactive: -0.22%; for `CCC(CO)(C(=O)OC1CN2CCC1CC2)c1ccccc1` (centres undefined): inactive: -3.14%. With `COc1cc(OC)cc(C(=O)NCC2(N3CCOCC3)CCCCC2)c1`, the inhibition is inactive: -1.37%. The same measure for `CC(C)(C)OC(=O)N1CCC(Nc2ccccc2)CC1`: inactive: -6.36%; for `CCOc1ncccc1C(=O)NCC1(N2CCOCC2)CCCCC1`: inactive: -21.4%; for `CN(C)c1ccc(C(=O)NCC2(N3CCCCC3)CCCCC2)cc1`: inactive: -3.92%. `CCN1CCC(Nc2cccc(F)c2)CC1`: the inhibition is inactive: 4.65%. In the case of `Fc1ccccc1NC1CCN(Cc2ccccc2)CC1`, the inhibition was inactive: 3.36%. As for `Cc1ccc(OCC(C)C)c(CN(CCCl)CCCl)c1`, the figure is inactive: -7.3%; as for `COc1ccc(NC2CCN(CCc3ccccc3)CC2)c(OC)c1`, inactive: -3.33%; as for `CCOc1ccc(C)cc1CN(CCCl)CCCl`, inactive: -5.9%. With `CCOC(=O)N1CCC(Nc2ccc(OC)cc2)CC1`, the inhibition was inactive: 0.65%. With `O=C(OC1CN2CCC1CC2)C1c2ccccc2Oc2ccccc21` (centres undefined), the inhibition is inactive: 8.38%. Consider `N#CC1(Nc2ccccc2)CCN(Cc2ccccc2)CC1`, for which the inhibition is inactive: -6.78%. For the molecule `O=C(NCC1(N2CCOCC2)CCCCC1)c1cc2ccccc2o1`, the inhibition was inactive: 1.19%. `COc1ccc(C(=O)NCC2(N3CCCCC3)CCCCC2)c(OC)c1OC`: the inhibition is inactive: 5.52%. For `CN1CCC(Nc2cccc(F)c2)CC1`, the inhibition is inactive: 7.64%. On to `COc1ccc(CN(CCCl)CCCl)cc1Cl`, for which the inhibition is inactive: -2.75%. Take `CN(C)c1cccc(C(=O)NCC2(N3CCCCC3)CCCCC2)c1`: the inhibition was inactive: 1.36%.

Turning to `CC(C)c1ccc(NC2CCN(C(=O)OC(C)(C)C)CC2)cc1`, the inhibition was inactive: 7.49%. `COc1ccc(NC2CCN(C(=O)OC(C)(C)C)CC2)cc1`: the inhibition is inactive: 1.24%. The same measure for `CN1CCN(CCOC(=O)C(O)(c2ccccc2)c2ccccc2)CC1`: inactive: -7.3%; for `O=C(NCC1(N2CCOCC2)CCCCC1)c1cc(=O)[nH]c2ccccc12`: inactive: -3.25%; for `O=C(NCC1(N2CCCCC2)CCCCC1)c1cccc([N+](=O)[O-])c1`: inactive: 1.74%. The same measure for `N#CC1(Nc2ccccc2)CCN(CCc2ccccc2)CC1`: inactive: -0.73%.
